Compound potency records, mixed from different reports. Data source: NIAID ChemDB in PubChem.

All rows: growth or infection tests; organism: HIV-1; method: ELISA; endpoint: EC50

An empty or dashed field is not shown.

{"structure": "CCCCCCCCCCCCCC(=O)OC[C@H](COP(=O)(O)OC[C@@H]1CC[C@H](n2cnc3c(=O)[nH]c(N)nc32)O1)OC(=O)CCCCCCCCCCCCC", "cell line": "MT-4", "strain or isolate": "IIIB", "value": "<10 µM"}
{"structure": "O=C(O[C@@H]1Cc2c(O)cc(O)cc2O[C@@H]1c1ccc(O)c(O)c1)c1cc(O)c(O)c(O)c1", "cell line": "C8166", "strain or isolate": "IIIB", "value": "1 µg/mL"}
{"structure": "Oc1ccc(/C=C/c2ccc3c(Cl)cc(Cl)c(O)c3n2)cc1O", "cell line": "CEM", "value": ">17 µM"}
{"structure": "CCCCCCCCCCCCCC(=O)OC[C@@H](COP(=O)(O)OC[C@@H]1CC[C@H](n2cnc3c(N)ncnc32)O1)OC(=O)CCCCCCCCCCCCC", "cell line": "CEM13 + CEM", "strain or isolate": "LAV-Bru", "value": "<10 µM"}
{"structure": "CCc1c(CC2CCCCC2)nc(SCC(=O)c2ccccc2)[nH]c1=O", "cell line": "C8166", "strain or isolate": "Clinical isolate", "mutations": "KM018", "value": "0.0418 µM"}
{"structure": "Nc1nc2c(ncn2COC(CO)CO)c(=O)[nH]1", "cell line": "H9", "strain or isolate": "IIIB", "value": ">50 µM"}
{"structure": "CSc1ccc(OP(=O)(OC[C@H]2O[C@@H](n3cc(C)c(=O)[nH]c3=O)C[C@@H]2N=[N+]=[N-])Oc2ccc(SC)cc2)cc1", "cell line": "JM", "strain or isolate": "GB8)/1(IIIB", "value": "15 µM"}
{"structure": "Cc1[nH]c(=O)[nH]c(=O)c1Cc1ccccc1", "cell line": "MT-4", "value": ">53 µM"}
{"structure": "COc1ccc(OP(=O)(OC[C@H]2O[C@@H](n3cc(C)c(=O)[nH]c3=O)C[C@@H]2N=[N+]=[N-])Oc2ccc(OC)cc2)cc1", "cell line": "JM", "strain or isolate": "GB8)/1(IIIB", "value": "45 µM"}
{"structure": "O=C(O)P(=O)(O)O", "conditions": "2 d", "cell line": "H9", "value": "10 µg/mL"}
{"structure": "Cc1c(Cc2ccccc2)c(=O)n(Cc2ccccc2)c(=O)n1Cc1ccccc1", "cell line": "MT-4", "value": ">53 µM"}
{"structure": "Cc1cn([C@H]2C[C@H](N=[N+]=[N-])[C@@H](COP(=O)(Oc3ccc([N+](=O)[O-])cc3)Oc3ccc([N+](=O)[O-])cc3)O2)c(=O)[nH]c1=O", "cell line": "C8166", "strain or isolate": "IIIB", "value": "0.0032 µM"}
{"structure": "O=c1c(O)c(-c2ccc(O)cc2)oc2cc(O)cc(O)c12", "cell line": "C8166", "strain or isolate": "MN", "value": "4 µg/mL"}
{"structure": "O=C(O)c1ccc2ccc(/C=C/c3ccsc3)nc2c1O", "cell line": "CEM", "value": ">85 µM"}
{"structure": "Nc1ncnc2c1ncn2CCOCP(=O)(O)O", "cell line": "MT-2", "strain or isolate": "LAI", "value": "1.3 µM"}
{"structure": "O=Nc1ccc2oc(=O)ccc2c1", "cell line": "PBL", "strain or isolate": "LAV", "value": "<1 µM"}
{"structure": "O=C(O)C1(O)C[C@@H](O)C(O)[C@H](O)C1", "cell line": "C8166", "strain or isolate": "MN", "value": ">200 µg/mL"}
{"structure": "Nc1ccn([C@H]2CC[C@@H](CO)O2)c(=O)n1", "cell line": "MT-4", "strain or isolate": "IIIB", "value": "<10 µM"}
{"structure": "Cc1cn([C@H]2C[C@H](N=[N+]=[N-])[C@@H](CO)O2)c(=O)[nH]c1=O", "cell line": "C8166", "strain or isolate": "MN", "value": "0.004 µg/mL"}
{"structure": "O=C(Oc1cc(O)c2c(c1)O[C@H](c1ccc(O)c(O)c1)[C@@H](O)C2)c1cc(O)c(O)c(O)c1", "cell line": "C8166", "strain or isolate": "IIIB", "value": "10 µg/mL"}
{"structure": "Nc1nc2c(ncn2CC(CO)CCO)c(=O)[nH]1", "cell line": "H9", "strain or isolate": "IIIB", "value": ">50 µM"}
{"structure": "O=c1cc(-c2ccccc2)oc2cc(O)cc(O)c12", "cell line": "C8166", "strain or isolate": "IIIB", "value": "20 µg/mL"}
{"structure": "CCOCn1c(C)c(Cc2ccccc2)c(=O)[nH]c1=O", "cell line": "MT-4", "value": "30 µM"}
{"structure": "O=c1c(O[C@@H]2O[C@H](CO)[C@@H](O)[C@H](O)[C@H]2O)c(-c2ccc(O)cc2)oc2cc(O)cc(O)c12", "cell line": "C8166", "strain or isolate": "IIIB", "value": "10 µg/mL"}
{"structure": "C[C@@H]1CCCC[C@H]1Oc1cc(CCc2ccccc2)[nH]c(=O)c1I", "cell line": "TZM-bl", "strain or isolate": "SF33", "value": "0.014 µM"}
{"structure": "Cc1c(Sc2ccccc2)n(COCCO)c(=O)[nH]c1=O", "cell line": "MT-4", "value": "53 µM"}
{"structure": "NS(=O)(=O)c1ccc(Oc2ccc(NC(=O)N[C@@H]3[C@@H]4CCc5c(F)ccc(F)c5[C@@H]43)cc2)cc1", "cell line": "MT-4 cells", "strain or isolate": "IIIB", "mutations": "L100I", "value": "0.009 µM"}
{"structure": "Oc1cc(O)c2c(c1)O[C@H](c1cc(O)c(O)c(O)c1)[C@@H](O)C2", "cell line": "C8166", "strain or isolate": "IIIB", "value": "5 µg/mL"}
{"structure": "CCCCCCCCCCCCCC(=O)OC[C@@H](COP(=O)(O)OC[C@@H]1CC[C@H](n2ccc(N)nc2=O)O1)OC(=O)CCCCCCCCCCCCC", "cell line": "CEM13 + CEM", "strain or isolate": "LAV-Bru", "value": "<10 µM"}
{"structure": "Cc1cn([C@H]2C[C@H](N=[N+]=[N-])[C@@H](COP(=O)(Oc3ccccc3)Oc3ccccc3)O2)c(=O)[nH]c1=O", "cell line": "JM", "strain or isolate": "GB8)/1(IIIB", "value": "40 µM"}
{"structure": "Cc1cn([C@H]2C[C@H](N=[N+]=[N-])[C@@H](CO)O2)c(=O)[nH]c1=O", "cell line": "PBMC", "strain or isolate": "720", "value": "0.01 µM"}
{"structure": "OCC1OC(OCCc2ccccc2)C(O)C(O)C1O", "cell line": "C8166", "strain or isolate": "MN", "value": ">250 µg/mL"}
{"structure": "CC1(C)[C@@H](O[C@H]2O[C@H](C(=O)O)[C@@H](O)[C@H](O)[C@H]2O[C@@H]2O[C@H](C(=O)O)[C@@H](O)[C@H](O)[C@H]2O)CC[C@]2(C)[C@H]3C(=O)C=C4[C@@H]5C[C@@](C)(C(=O)O)CC[C@]5(C)CC[C@@]4(C)[C@]3(C)CC[C@@H]12", "cell line": "MT-4", "strain or isolate": "Clinical isolate GVK 4046", "value": "<500 µg/mL"}
{"structure": "CO[P@](=O)(c1cc(C)cc(/C=C/C#N)c1)c1c(C(N)=O)[nH]c2ccc(Cl)c(F)c12", "cell line": "MT-4", "strain or isolate": "NL4-3", "mutations": "K103N", "value": "0.0014 µM"}
{"structure": "O=c1c(O)c(-c2ccc(O)c(O)c2)oc2cc(OC3OC(CO)C(O)C(O)C3O)cc(O)c12", "cell line": "C8166", "strain or isolate": "MN", "value": ">250 µg/mL"}

A second listing of 5 rows from above:

structure | conditions | cell line | strain or isolate | mutations | value
O=C(O[C@@H]1Cc2c(O)cc(O)cc2O[C@@H]1c1ccc(O)c(O)c1)c1cc(O)c(O)c(O)c1 | - | C8166 | IIIB | - | 1 µg/mL
OCC1OC(OCCc2ccccc2)C(O)C(O)C1O | - | C8166 | MN | - | >250 µg/mL
CCOCn1c(C)c(Cc2ccccc2)c(=O)[nH]c1=O | - | MT-4 | - | - | 30 µM
CCCCCCCCCCCCCC(=O)OC[C@@H](COP(=O)(O)OC[C@@H]1CC[C@H](n2cnc3c(N)ncnc32)O1)OC(=O)CCCCCCCCCCCCC | - | CEM13 + CEM | LAV-Bru | - | <10 µM
O=c1cc(-c2ccccc2)oc2cc(O)cc(O)c12 | - | C8166 | IIIB | - | 20 µg/mL

ECn: concentration that inhibits the pathogen or its effect by n%. Rows are shuffled and stem from different studies.